US11572377B2, “Nucleotide analogs” (The Regents of the University of California, priority 2015, dated 2023)

Test system: HPV-11
Experiment: Low risk HPV assay: HPV origin plasmid replication in HEK 293 cells (qPCR)
Assay type: cell-based, human papillomavirus
Settings: CC50/EC50, HPV-11 in HEK-293 cells
Method: An origin-containing low risk or high risk HPV plasmid was co-transfected with homologous E1 and E2 protein expression vectors into HEK 293 cells. At 4 h post-transfection, cells were treated with test compound dilutions and then incubated for 48 h. HPV origin plasmid replication was detected after digestion with DpnI and exonuclease III to remove unreplicated transfected plasmids. Remaining replicated DNA was quantified by quantitative real time PCR (qPCR). In a parallel experiment in uninfected cells cytotoxicity was determined by trypan blue exclusion or CELLTITER-GLO® to find the concentration that reduced viable cell number by 50% (CC50). CC50 values were determined by trypan blue exclusion or CELLTITER-GLO® and the selectivity index calculated (Selectivity index=CC50/EC50). The low risk HPV tested was HPV-11, and the high-risk HPV tested was HPV-16 and HPV-18.

Row | SMILES | SI50
1 | Nc1ccn(C[C@@H](CO)OCP(=O)(O)O)c(=O)n1 [Cidofovir, cidofovir, reference compound] | >7
2 | CCCCCCCCCCCCCCCCCCOCCOP(=O)(COCCn1cnc2c(=O)[nH]c(N)nc21)OCc1ccc(OC)c(Cl)c1 (centres unmarked) [ODE-(3-Cl-4-OMe-Bn)-PMEG] | 12
3 | CCCCCCCCCCCCCCCCCCOCCOP(=O)(COCCn1cnc2c(=O)[nH]c(N)nc21)OCc1cccc(Cl)c1 (centres unmarked) [ODE-(3-Cl-Bn)-PMEG] | 5
4 | CCCCCCCCCCCCCCCCCCOCCOP(=O)(COCCn1cnc2c(=O)[nH]c(N)nc21)OCc1ccc(OC)c(F)c1 (centres unmarked) [ODE-(3-F-4-OMe-Bn)-PMEG] | 79
5 | CCCCCCCCCCCCCCCCCCOCCOP(=O)(COCCn1cnc2c(=O)[nH]c(N)nc21)OCc1cccc(F)c1 (centres unmarked) [ODE-(3-F-Bn)-PMEG] | 7
6 | CCCCCCCCCCCCCCCCCCOCCOP(=O)(COCCn1cnc2c(=O)[nH]c(N)nc21)OCc1ccc(C)cc1 (centres unmarked) [ODE-(4-Me-Bn)-PMEG] | 26
7 | CCOC(=O)[C@H](C)NP(=O)(COCCn1cnc2c(=O)[nH]c(N)nc21)N[C@@H](C)C(=O)OCC [PMEG bisamidate, 9-[2-(bis-(ethyloxy-L-alaninyl)-phosphonomethoxy)ethyl]guanine] | >20
8 | CCOC(=O)[C@H](C)NP(=O)(COCCn1cnc2c(=O)[nH]c(N)nc21)Oc1ccccc1 (some centres unmarked) [PMEG phenoxy amidate] | >13
